Patent US8329685B1, “Enhancement of the action of anti-infective agents and of central and peripheral nervous system agents and transportation of nucleic acid substances” (priority 2001, dated 2012)

System: Fungi of the mycosis type
Conditions: 0.4% final concentration

`Clc1ccc(COC(Cn2ccnc2)c2ccc(Cl)cc2Cl)c(Cl)c1` (stereo not shown) [Free Miconazole, Miconazole nitrate] gave a viability of fungi (30 min after single exposure) of 80%, a viability of fungi (4 hours after single exposure) of 70% and a viability of fungi (11 days after single exposure) of 30%. The viability of fungi (18 days after single exposure) was 15%.

Read-outs that look alike come from different tables or passages of the source.
